# Source: PubChem BioAssay AID1259414 (Drosophila RNAi Screening Center, 2018)
# Purpose: 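Genome-wide screen for host control of endosymbiont load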 (primary screen)
# Cells: Drosophila JW18 cells infected with Wolbachia
# Knock-down reagent: long dsRNA against Drosophila genes, 0.25 µg dsRNA per well of a 384-well plate
# Time to read-out: 5 days
# Challenge: cells persistently infected with Wolbachia before knock-down; no added drug
# Detection: 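Automated imaging of bacterial rRNA staining divided by host cell count, reported as plate-normalised robust z-score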
# Reading the numbers: Wolbachia per cell robust z: higher = more Wolbachia per host cell than the plate typical
# Active means: 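Active if absolute robust z reaches 1.5 in two or more of three replicates, leaving out multi- or no-target dsRNAs, genes unexpressed in JW18 and A1 wells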
# The deposit covers about 24,000 reagents; below is a random part of those with a known target gene and a result. Of all reagents, about 1,210 (5%) got an active call. 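Inactive calls also include excluded dsRNAs with several or no targets, genes unexpressed in JW18, and well A1, regardless of score.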 A plus sign joins genes that one reagent is predicted to hit.
Target gene,DRSC id,"Wolbachia per cell robust z, rep 1","Wolbachia per cell robust z, rep 2","Wolbachia per cell robust z, rep 3",outcome
CG13216,DRSC06338,0.729,0.354,-3.45,inactive
shakB,DRSC20423,0.306,-2.16,1.05,inactive
shakB,DRSC20585,-1.2,-1.52,-2.72,inactive
shakB,DRSC21445,0.974,0.736,0.861,inactive
shakB,DRSC22817,-1.67,-3.19,-2.31,inactive
shakB,DRSC26262,-1.47,-1.36,0.00055,inactive
shakB,DRSC40761,0.011,-0.702,-2.19,inactive
Cchl,DRSC15949,-9.26,1.39,-0.564,inactive
CG12009,DRSC08217,0.249,1.09,-0.54,inactive
CG12009,DRSC26937,-0.0879,-0.562,0.875,inactive
dbf,DRSC02570,-0.622,0.0948,-0.52,inactive
dbf,DRSC27207,-1.1,1.09,-1.57,inactive
Pal1,DRSC06106,-0.418,-3.53,-0.00728,inactive
CG34034,DRSC38815,-1.12,-0.354,-0.463,inactive
SLO2,DRSC06214,-1.34,-0.669,-2.74,inactive
SLO2,DRSC06216,0.676,0.754,0.492,inactive
SLO2,DRSC06218,-0.305,-0.577,-0.711,inactive
SLO2,DRSC23225,-0.0396,-0.288,-0.147,inactive
SLO2,DRSC27805,-0.197,1.04,1.28,inactive
Tsp42Ed,DRSC05940,-3.06,-5.46,-2.96,active
CG3592,DRSC18315,-1.11,-0.423,-1.59,inactive
CG3592,DRSC40712,-0.649,-1.09,-0.116,inactive
fest,DRSC07349,0.87,1.39,-0.269,inactive
fest,DRSC24249,-0.229,-0.909,-1.85,inactive
Ac13E,DRSC19325,-0.0588,-0.891,0.098,inactive
Ac13E,DRSC27333,1.05,0.688,0.147,inactive
eyg,DRSC23136,0.144,0.628,1.02,inactive
eyg,DRSC26636,-0.055,-0.324,-0.366,inactive
r-l,DRSC17042,0.273,-0.446,0.03,inactive
r-l,DRSC22784,0.69,-1.32,0.0239,inactive
Dop1R1,DRSC13021,-0.627,-0.763,-8.98,inactive
Dop1R1,DRSC16652,0.939,0.25,0.264,inactive
Dop1R1,DRSC23514,0.283,0.226,0.257,inactive
Cad86C,DRSC15587,0.0394,-0.126,-0.569,inactive
Cad86C,DRSC15611,0.653,0.131,1.1,inactive
Cad86C,DRSC27602,-1.5,-1.42,-1.99,active
Cad86C,DRSC28094,0.559,0.0216,0.231,inactive
Or94b,DRSC16773,0.656,0.205,1.23,inactive
Or94b,DRSC27188,0.177,0.294,-4.99,inactive
Ost48,DRSC18693,0.676,1.22,0.527,inactive
toe,DRSC09174,0.214,-0.847,-0.369,inactive
toe,DRSC41280,-0.663,-2.71,0.485,inactive
toe,DRSC41281,-0.153,-0.657,0.37,inactive
Bap111,DRSC18419,1.79,0.28,1.33,inactive
Bap111,DRSC28822,1.07,-0.501,0.572,inactive
CG31226,DRSC21724,-2.07,0.752,-1.15,inactive
dia,DRSC03519,-2.27,0.653,2.48,inactive
dia,DRSC24127,0.0378,0.432,1.29,inactive
ATPsynbetaL,DRSC10503,0.916,-0.336,0.252,inactive
ATPsynbetaL,DRSC24354,-0.836,1.24,-1.19,inactive
CR32009 + PlexB + CR32010 + 1 more,DRSC26099,-0.364,0.748,-0.311,inactive
Rpe,DRSC06407,-0.212,0.824,-5.33,inactive
frac,DRSC10867,0.851,0.848,0.814,inactive
frac,DRSC29239,-7.29,-1.06,-0.5,inactive
dyw,DRSC18228,-1.04,0.539,0.692,inactive
dyw,DRSC29300,-0.159,1.5,1.36,inactive
Neurl4,DRSC10638,0.0967,0.275,0.685,inactive
Fas3,DRSC03326,-0.264,0.574,-0.146,inactive
Fas3,DRSC22776,-1.1,-1.75,0.239,inactive
Fas3,DRSC28665,0.595,-0.693,-0.345,inactive
mRpL9,DRSC15678,0.281,0.747,0.677,inactive
mRpL9,DRSC27528,0.75,-4.97,0.118,inactive
CG11044,DRSC06026,-0.37,-0.00243,0.169,inactive
CG11044,DRSC27143,0.409,-0.66,0.567,inactive
l(1)sc,DRSC18789,-0.362,-0.757,0.767,inactive
l(1)sc,DRSC28734,0.39,0.537,0.524,inactive
Nubp1,DRSC02639,-2.01,-0.354,0.133,inactive
CG17821,DRSC06696,-0.703,-0.109,-1.84,inactive
mag,DRSC11787,0.598,0.574,0.827,inactive
mag,DRSC25641,0.756,0.0892,0.0911,inactive
CG42269,DRSC10670,0.779,1.38,1.26,inactive
CG42269,DRSC10672,-0.767,-0.558,-0.247,inactive
CG42269,DRSC24477,-0.373,0.488,-8.5,inactive
CG42269,DRSC26685,0.472,0.238,1.87,inactive
CG12702,DRSC19487,-0.539,-1.62,-2.2,active
CG12702,DRSC27645,0.419,-0.483,0.881,inactive
Pof,DRSC04405,-0.173,-6.66,0.34,inactive
CG30380,DRSC05069,0.587,0.385,0.606,inactive
CG2887,DRSC18235,0.828,-0.355,0.125,inactive
CG2887,DRSC24167,1.2,0.701,0.602,inactive
Rcd7,DRSC10100,-0.583,-0.291,-0.516,inactive
MFS12,DRSC07268,-0.536,0.481,1.7,inactive
sog,DRSC20379,0.154,0.719,-0.0713,inactive
fmt,DRSC09717,0.356,-0.431,1.06,inactive
CG32176,DRSC10057,-0.314,-1.35,0.515,inactive
CG32176,DRSC10058,-3.79,1.31,-1.53,active
CG32813,DRSC17948,1.7,-1.22,-0.313,inactive
CG32813,DRSC24734,0.925,0.409,0.0395,inactive

Single entries from above:
dbf [DRSC27207], Wolbachia per cell robust z, rep 1: -1.1
For “outcome”, ATPsynbetaL [DRSC24354] shows inactive
Value of CG12009 [DRSC26937] in “outcome”: inactive
Under “Wolbachia per cell robust z, rep 3”, Cad86C [DRSC28094] reads 0.231
